A mixed list of measured activities; the numbers were collected in NIAID ChemDB.

Common to all: whole-cell or culture tests; organism: HIV-1

Blank or dashed fields: not listed here.

compound | strain | read-out | cells | changes | method | value
Cc1cccc(C)c1C(=O)N1CCC(C)(N2CCC(Nc3ccc(Br)cc3)CC2)CC1 | - | EC50 | CEM | - | cytopathic effect / XTT | 2.9 µM
O=C(NCCc1ccccc1)Nc1ncco1 | - | EC50 | MT-4 | - | cytopathic effect / XTT | >10 µg/mL
COCCNC(=O)[C@@H](NC(=O)[C@H](Cc1ccc(OC)cc1OC)C[C@H](O)[C@H](Cc1ccccc1)NC(=O)OC(C)(C)C)C(C)C | MN | EC90 | MT-2 | - | RT activity | 0.1 µM
COc1cccc2[nH]cc(C(=O)C(=O)N3CCN(C(=O)c4ccccc4)C[C@@H]3C)c12 | - | EC50 | HeLa + HELA CD4+/CCR5 | - | luciferase | <10 µM
Fc1cccc(Cl)c1CCNC(=S)Nc1nccs1 | - | EC50 | MT-4 | - | cytopathic effect / XTT | <1 µg/mL
COc1ccc(OC)c2c(C(=O)C(=O)N3CCN(C(=O)c4ccc(Br)o4)C[C@H]3C)c[nH]c12 | - | EC50 | HeLa + HELA CD4+/CCR5 | - | luciferase | <10 µM
Cc1nc(CCCCCCC(=O)c2ccccc2)n2nc(NCCCCCCCCN)ccc12 | LAI | EC50 | CEM + CEM-SS | - | RT activity | 6.2 µM
CS(=O)(=O)Nc1ccc(NC(=O)COc2ccc(Cl)cc2C(=O)c2ccccc2)cc1 | WTRVA | EC50 | HeLa + HELA CD4+ | - | β-galactosidase | <0.01 µM
O=C1[C@@H](c2ccc(-c3ccccc3)cc2)NC(=S)N1c1ccccc1 | - | EC50 | MT-4 | - | cytopathic effect / XTT | >10 µg/mL
Cc1nc(CCCCCCC(=O)c2ccccc2)n2nc(NCCCCCCCCCCCCNCc3cn([C@H]4C=C[C@@H](CO)O4)c(=O)[nH]c3=O)ccc12 | IIIB | EC50 | PBMC | - | RT activity | 0.04 µM
Cc1cccc(N/N=C/c2ccc3cccc(O)c3n2)c1C | UG070 | EC50 | TZM-bl | - | luciferase | 19.22 µM
COc1cccc(C[C@H](C[C@H](O)[C@H](Cc2ccccc2)NC(=O)OC(C)(C)C)C(=O)N[C@H](C(=O)N[C@@H](Cc2ccccc2)C(=O)N2CCOCC2)C(C)C)c1 | MN | EC50 | MT-2 | - | RT activity | <0.03 µM
CCC(C)NC(=O)c1ccccc1SSc1ccccc1C(=O)NC(C)CC | - | EC50 | CEM | - | cytopathic effect / XTT | >15 µM
Cc1cc(S(N)(=O)=O)ccc1NC(=O)COc1ccc(Cl)cc1C(=O)c1cccc(C#N)c1 | HXB2 (RT-K103N G190A) Recombinant | EC50 | HeLa + HELA CD4+ | RT-K103N G190A | β-galactosidase | 0.011–0.1 µM
CCOCc1cn([C@H]2C=C[C@@H](CO)O2)c(=O)[nH]c1=O | Nevirapine-resistant | EC50 | CEM + CEM-SS | - | RT activity | 3 µM
Cc1cn(C2OC(CO[Si](C)(C)C(C)(C)C)C3(OS(=O)(=O)C=C3N)C2O[Si](C)(C)C(C)(C)C)c(=O)n(/C=C\CO)c1=O | IIIB | EC50 | MT-4 | - | trypan blue | 0.32 µM
Oc1cccc2ccc(/C=N/Nc3ccc(Cl)cc3)nc12 | VB59 | EC50 | TZM-bl | - | luciferase | 88.4 µM
CC(C)Oc1ccc(NC(=O)c2ccccc2SSc2ccccc2C(=O)Nc2ccc(OC(C)C)cc2)cc1 | - | EC50 | CEM | - | cytopathic effect / XTT | 12 µM
Cc1cn(CCCO[C@H]2C=C[C@@H](CO)O2)c(=O)[nH]c1=O | LAI | EC50 | CEM + CEM-SS | - | RT activity | 37 µg/mL
O=C(C(=O)N1CCN(C(=O)c2ccc(Br)o2)CC1)c1c[nH]c2cccc(F)c12 | - | EC50 | HeLa + HELA CD4+/CCR5 | - | luciferase | <10 µM
NS(=O)(=O)c1ccc(NC(=O)NCCc2ccccc2)cc1 | - | EC50 | MT-4 | - | cytopathic effect / XTT | >10 µg/mL
CC1=C(C(=O)Nc2ccc(Cl)c(C(=O)OC(C)C)c2)SCCO1 | IIIB | EC50 | CEM | RT-V106A | syncytia | >61 µM
CCc1cc(C#N)cc(C(=O)c2cc(Cl)ccc2OCC(=O)Nc2ccc(S(N)(=O)=O)cc2C)c1 | HXB2 | EC50 | HeLa + HELA CD4+ | RT-K103N V108I | β-galactosidase | <0.01 µM
CCCOC1(C(F)(F)F)OC(=O)Nc2ccc(Cl)cc21 | - | EC50 | - | RT-K103N | - | <0.064 µM
COc1ccc(N/N=C/c2ccc3cccc(O)c3n2)cc1 | UG070 | EC50 | TZM-bl | - | luciferase | 6.27 µM
O=C1Nc2ccc(F)c(F)c2C(C#Cc2ccoc2)(C(F)(F)F)O1 | - | EC50 | - | - | - | <0.00321 µM
Cc1cc(S(N)(=O)=O)ccc1NC(=O)COc1ccc(Cl)cc1C(=O)c1cc(Cl)cc(C#N)c1 | HXB2 | EC50 | HeLa + HELA CD4+ | RT-V108I Y181C | β-galactosidase | <0.01 µM
COc1ccc(C[C@H](C[C@H](O)[C@H](Cc2ccccc2)NC(=O)OC(C)(C)C)C(=O)N[C@H](C(=O)NCCN(C)C)C(C)C)cc1 | MN | EC50 | MT-2 | - | RT activity | <0.3 µM
Cc1cc(S(N)(=O)=O)ccc1NC(=O)COc1ccc(Cl)cc1C(=O)c1cc(F)cc(C(F)(F)F)c1 | HXB2 | EC50 | HeLa + HELA CD4+ | RT-V108I | β-galactosidase | <0.01 µM
COc1ccc(OC)c(NC(=O)c2ccccc2SSc2ccccc2C(=O)Nc2cc(OC)ccc2OC)c1 | - | EC50 | CEM | - | cytopathic effect / XTT | 19 µM
CCCOCCCNC(=O)[C@@H](NC(=O)[C@H](Cc1ccc(OC)c(OC)c1OC)C[C@H](O)[C@H](Cc1ccccc1)NC(=O)OC(C)(C)C)C(C)C | MN | EC90 | MT-2 | - | RT activity | 0.03 µM
Cc1c(C(C)c2c(F)cccc2F)nc(N(C)C)[nH]c1=O | - | EC50 | MT-4 | - | MTT | 0.01 µM
Cc1cc(OCCCS(N)(=O)=O)ccc1NC(=O)COc1ccc(Cl)cc1C(=O)c1cc(F)cc(C(F)(F)F)c1 | HXB2 | EC50 | HeLa + HELA CD4+ | RT-V108I Y181C | β-galactosidase | <0.01 µM
O=C1Nc2ccc(F)c(F)c2C(OCC=C(Cl)Cl)(C(F)(F)F)O1 | - | EC50 | - | RT-K103N | - | <0.183 µM
Cc1nc(CCCCCCC(=O)c2ccccc2)n2nc(NCCCCCCCCCCNCc3cn([C@H]4C=C[C@@H](CO)O4)c(=O)[nH]c3=O)ccc12 | IIIB | EC50 | MT-4 | - | RT activity | 0.13 µM
CC(C)[C@H](NC(=O)[C@H](Cc1ccccc1)C[C@H](O)[C@H](Cc1ccccc1)NC(=O)OC(C)(C)C)C(=O)NCCN(C)C | MN | EC50 | MT-2 | - | RT activity | <0.3 µM
CC(C)[C@H](NC(=O)OCc1ccccn1)C(=O)N[C@@H](Cc1ccccc1)[C@@H](O)C[C@H](Cc1ccccc1)NC(=O)OCc1cccnc1 | NL4-3 | EC50 | MT-4 | PR-L10R M46I | p24 | <0.8 µM
Cc1nc(CCCCCCC(=O)c2ccccc2)n2nc(Cl)ccc12 | LAI | EC50 | CEM + CEM TK- | - | RT activity | 0.51 µM
Cc1cc(C#N)cc(C(=O)c2cc(Cl)ccc2OCC(=O)Nc2ccc(S(N)(=O)=O)cc2C)c1 | IIIB | EC50 | MT-4 | - | cytopathic effect / propidium iodide | <0.01 µM
Nc1ccn([C@@H]2CS[C@H](CO)O2)c(=O)n1 | NL4-3 | EC50 | TZM-bl | WT | luciferase | 0.00095 µM
CCOCCNC(=O)[C@@H](NC(=O)[C@H](Cc1ccc(OC)c(OC)c1OC)C[C@H](O)[C@H](Cc1ccccc1)NC(=O)OC(C)(C)C)C(C)C | MN | EC90 | MT-2 | - | RT activity | 0.03 µM
O=C(Nc1ccc(F)cc1)c1ccccc1SSc1ccccc1C(=O)Nc1ccc(F)cc1 | - | EC50 | CEM | - | cytopathic effect / XTT | 4.5 µM
CCc1ccccc1N/N=C/c1ccc2cccc(O)c2n1 | VB59 | EC50 | TZM-bl | - | luciferase | 8.86 µM
O=C(NCCc1ccccc1)Nc1ncccn1 | - | EC50 | MT-4 | - | cytopathic effect / XTT | >100 µg/mL
Cc1ccc2[nH]cc(C(=O)C(=O)N3CCN(C(=O)c4ccccc4)CC3)c2c1 | BRU | EC50 | MT-2 | - | RT activity | ~10 µM
Cc1cc(Cl)cc(C(=O)c2cc(Cl)ccc2OCC(=O)Nc2ccc(S(N)(=O)=O)cc2C)c1 | HXB2 | EC50 | HeLa + HELA CD4+ | RT-V106I | β-galactosidase | <0.01 µM
CN1CCc2c(c(O)c3n2CCN(Cc2ccc(F)cc2)C3=O)C1=O | - | EC95 | MT-4 | - | p24 | ≤10 µM
O=C(C(=O)N1CCN(C(=O)c2cccc3ccsc23)CC1)c1c[nH]c2cccc(Cl)c12 | - | EC50 | HeLa + HELA CD4+/CCR5 | - | luciferase | <10 µM
Cc1cc(C)cc(C(=O)c2cc(Cl)ccc2OCC(=O)Nc2ccc(S(N)(=O)=O)cc2C)c1 | Nevirapine-resistant (RT Y181C) | EC50 | MT-4 | RT-Y181C | cytopathic effect / propidium iodide | <0.01 µM
O=C(C(=O)N1CCN(C(=O)c2ccccc2)CC1)c1c[nH]c2ccc(F)cc12 | BRU | EC50 | MT-2 | - | RT activity | <10 µM
COc1ccc(CCNC(=S)Nc2nccs2)cc1OC | - | EC50 | MT-4 | - | cytopathic effect / XTT | >100 µg/mL
O=C1Nc2ccc(F)cc2C(C#Cc2ccccn2)(C(F)(F)F)O1 | - | EC50 | - | - | - | <0.01219 µM
Cc1cn(C2OC(CO[Si](C)(C)C(C)(C)C)C3(OS(=O)(=O)C=C3N)C2O[Si](C)(C)C(C)(C)C)c(=O)n(CCCNC(=O)c2ccc(C(=O)c3ccccc3)cc2)c1=O | IIIB | EC50 | MT-4 | - | trypan blue | 0.29 µM
Cc1cn([C@H]2C[C@H](N=[N+]=[N-])[C@@H](CO)O2)c(=O)[nH]c1=O | Clinical isolate | EC50 | MT-4 | - | MTT | 0.0165 µg/mL
O=C1Nc2ccc(Cl)cc2C(C#Cc2ccsc2)(C(F)(F)F)O1 | - | EC50 | - | - | - | <0.00447 µM
Cc1cn([C@H]2C[C@H](N=[N+]=[N-])[C@@H](CO)O2)c(=O)[nH]c1=O | - | EC50 | C8166 | - | cytopathic effect | 0.00203 µg/mL
Cc1cn(C2OC(CO[Si](C)(C)C(C)(C)C)C3(OS(=O)(=O)C=C3N)C2O[Si](C)(C)C(C)(C)C)c(=O)n(CC2CO2)c1=O | E138K | EC50 | CEM | - | syncytia | >10 µM
COCCNC(=O)[C@@H](NC(=O)[C@H](Cc1ccc2c(c1)OCO2)C[C@H](O)[C@H](Cc1ccccc1)NC(=O)OC(C)(C)C)C(C)C | MN | EC50 | MT-2 | - | RT activity | <0.03 µM
Cc1occc1C(=S)Nc1ccc(Cl)c(/C=N/OC(C)(C)C)c1 | IIIB | EC50 | CEM | RT-L100I | syncytia | 0.242 µM
CCCc1cc(=O)oc2c3c(c4c(c12)OC(C)(C)CC4)O[C@H](C)[C@@H](C)[C@@H]3O | SK1 | EC50 | CEM + CEM-SS | - | cytopathic effect / XTT | 0.14 µM
O=C(NCCc1ccccc1)Nc1ccccc1 | - | EC50 | MT-4 | - | cytopathic effect / XTT | >100 µg/mL
Cc1nc(CCCCCCC(=O)c2ccccc2)n2nc(NCCCCCCNCc3cn([C@H]4C=C[C@@H](CO)O4)c(=O)[nH]c3=O)ccc12 | IIIB | EC50 | PBMC | - | RT activity | 0.03 µM
CCC1CN(C(=O)C(=O)c2c[nH]c3c(C(=O)OC)cccc23)CCN1C(=O)c1ccccc1 | - | EC50 | HeLa + HELA CD4+/CCR5 | - | luciferase | <10 µM
S=C(NCCc1ccccc1)N1CCCCC1 | - | EC50 | MT-4 | - | cytopathic effect / XTT | >10 µg/mL

Again, the opening 6 rows:

compound	strain	read-out	cells	changes	method	value
Cc1cccc(C)c1C(=O)N1CCC(C)(N2CCC(Nc3ccc(Br)cc3)CC2)CC1	-	EC50	CEM	-	cytopathic effect / XTT	2.9 µM
O=C(NCCc1ccccc1)Nc1ncco1	-	EC50	MT-4	-	cytopathic effect / XTT	>10 µg/mL
COCCNC(=O)[C@@H](NC(=O)[C@H](Cc1ccc(OC)cc1OC)C[C@H](O)[C@H](Cc1ccccc1)NC(=O)OC(C)(C)C)C(C)C	MN	EC90	MT-2	-	RT activity	0.1 µM
COc1cccc2[nH]cc(C(=O)C(=O)N3CCN(C(=O)c4ccccc4)C[C@@H]3C)c12	-	EC50	HeLa + HELA CD4+/CCR5	-	luciferase	<10 µM
Fc1cccc(Cl)c1CCNC(=S)Nc1nccs1	-	EC50	MT-4	-	cytopathic effect / XTT	<1 µg/mL
COc1ccc(OC)c2c(C(=O)C(=O)N3CCN(C(=O)c4ccc(Br)o4)C[C@H]3C)c[nH]c12	-	EC50	HeLa + HELA CD4+/CCR5	-	luciferase	<10 µM

Two numbers with a dash give a range or band. ECn is the concentration giving n% inhibition of infection, replication or growth. Conditions beyond the fields shown may differ between rows.